Measurements reported in PubChem BioAssay AID1259414 (Drosophila RNAi Screening Center, 2018).

- Assay: 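Genome-wide screen for host control of endosymbiont load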 (primary screen)
- System: Drosophila JW18 cells infected with Wolbachia
- Knock-down reagent: long dsRNA against Drosophila genes, 0.25 µg dsRNA per well of a 384-well plate
- Timing: 5 days
- Conditions: cells persistently infected with Wolbachia before knock-down; no added drug
- Measured: 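Automated imaging of bacterial rRNA staining divided by host cell count, reported as plate-normalised robust z-score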
- Direction: Wolbachia per cell robust z: higher = more Wolbachia per host cell than the plate typical
- Active means: 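Hit when robust z is 1.5 or more, or -1.5 or less, in at least two of three replicates; excludes dsRNAs with several or no targets, genes not expressed in JW18 and well A1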
The deposit covers about 24,000 reagents; below is an unselected part of those that have a named target and a result. Of all reagents, about 1,210 (5%) got an active call. 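Inactive calls also include excluded dsRNAs with several or no targets, genes unexpressed in JW18, and well A1, regardless of score.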 A number with no mark means an inactive call.

{"gene": "lncRNA:iab8 (GeneID 12798430)", "DRSC id": "DRSC22252", "Wolbachia per cell robust z, rep 1": -1.19, "Wolbachia per cell robust z, rep 2": -1.36, "Wolbachia per cell robust z, rep 3": -0.53}
{"gene": "lncRNA:iab8 (GeneID 12798430)", "DRSC id": "DRSC28445", "Wolbachia per cell robust z, rep 1": -0.121, "Wolbachia per cell robust z, rep 2": 0.325, "Wolbachia per cell robust z, rep 3": 0.904}
{"gene": "CR40190 (GeneID 5740733)", "DRSC id": "DRSC40560", "Wolbachia per cell robust z, rep 1": 1.28, "Wolbachia per cell robust z, rep 2": -0.816, "Wolbachia per cell robust z, rep 3": 0.345}
{"gene": "TkR86C (GeneID 41286)", "DRSC id": "DRSC16880", "Wolbachia per cell robust z, rep 1": -2.98, "Wolbachia per cell robust z, rep 2": 0.24, "Wolbachia per cell robust z, rep 3": -1.32}
{"gene": "Ibf1 (GeneID 41103)", "DRSC id": "DRSC16419", "Wolbachia per cell robust z, rep 1": -0.494, "Wolbachia per cell robust z, rep 2": 0.724, "Wolbachia per cell robust z, rep 3": 0.31}
{"gene": "Sox21b (GeneID 39569)", "DRSC id": "DRSC23005", "Wolbachia per cell robust z, rep 1": -0.397, "Wolbachia per cell robust z, rep 2": -0.238, "Wolbachia per cell robust z, rep 3": -0.231}
{"gene": "Sox21b (GeneID 39569)", "DRSC id": "DRSC25803", "Wolbachia per cell robust z, rep 1": -0.306, "Wolbachia per cell robust z, rep 2": -0.491, "Wolbachia per cell robust z, rep 3": -0.797}

2 of these entries, reformatted:
CR40190 (GeneID 5740733) [DRSC40560]
- Wolbachia per cell robust z, rep 1: 1.28
- Wolbachia per cell robust z, rep 2: -0.816
- Wolbachia per cell robust z, rep 3: 0.345

TkR86C (GeneID 41286) [DRSC16880]
- Wolbachia per cell robust z, rep 1: -2.98
- Wolbachia per cell robust z, rep 2: 0.24
- Wolbachia per cell robust z, rep 3: -1.32

Next reagents:
{"gene": "tomboy20 (GeneID 41285)", "DRSC id": "DRSC14913", "Wolbachia per cell robust z, rep 1": -0.993, "Wolbachia per cell robust z, rep 2": -0.148, "Wolbachia per cell robust z, rep 3": 0.12}
{"gene": "CG31948 (GeneID 326178)", "DRSC id": "DRSC00740", "Wolbachia per cell robust z, rep 1": -0.398, "Wolbachia per cell robust z, rep 2": -1.16, "Wolbachia per cell robust z, rep 3": 0.293}
{"gene": "CG5347 (GeneID 32403)", "DRSC id": "DRSC19942", "Wolbachia per cell robust z, rep 1": -0.409, "Wolbachia per cell robust z, rep 2": -1.41, "Wolbachia per cell robust z, rep 3": 0.133}
{"gene": "CG14100 (GeneID 40132)", "DRSC id": "DRSC10101", "Wolbachia per cell robust z, rep 1": -1.55, "Wolbachia per cell robust z, rep 2": 0.54, "Wolbachia per cell robust z, rep 3": -0.248}
{"gene": "dgt2 (GeneID 34610)", "DRSC id": "DRSC02548", "Wolbachia per cell robust z, rep 1": 1.16, "Wolbachia per cell robust z, rep 2": 1.37, "Wolbachia per cell robust z, rep 3": 1.45}
{"gene": "dgt2 (GeneID 34610)", "DRSC id": "DRSC29741", "Wolbachia per cell robust z, rep 1": 0.439, "Wolbachia per cell robust z, rep 2": -0.797, "Wolbachia per cell robust z, rep 3": 0.535}
